{"source": "the supplement of paper PMC12637763", "binders": {"B1": {"name": "HIV-1 Env, rebound clone, placebo arm (protein)", "chain": "MKVRGTKMNWQHLWWRWGTMLLGMLMICKATEEKWVTVYYGVPVWKEATTTLFCASDAKAYEKEAHNVWATHACVPTDPSPQEVVLENVTENFNMWKNNMVEQMHEDIISLWDQSLKPCVKLTPLCVTLNCTDYTNSNSTNHTNSNSSSPTPTAGGEIKNCSFNITTNIRDKIKKEHALFYSLDVVQIDINDNTSYRLISCNTSVITQACPKTTFEPIPIYYCAPAGFAILKCNNKTFDGKGPCKNVSTVQCTHGIRPVVSTQLLLNGSLAEKEIVIRSDNFSDNTKNIIVQLKDPVVINCTRPNNNTRKGIHIGPGRAFYATGKVIGDIRQAYCNISKEKWNKTLGQIVKKLGAQFGNKTTMIFNQSSGGDPEIVTHSFNCGGEFFYCNTSALFNSTWSSNDGNGTWNKTNSTETNSTEIILQCRIKQIVNMWQEVGKAMYAPPIKGPIRCSSNITGLILTRDGGNNTGNNSETFRPAGGNMRDNWRSELYKYKIVKIEPLGIAPTKAKRRTVQREKRAVTMGAMFLGFLGAAGSTMGAASLTLTVQARQLLSGIVQQQNNLLRAIEAQQHLLQLTVWGIKQLQARVLAVERYLADQRFLGIWGCSGKLICTTTVPWNNSWSNKSLDSIWNNMTWMQWEKEIENYTGEIYNLIEQAQNQQEQNERELLELDKWASLWNWFDISNWLWYIKIFIMIVGGLIGLRIVFAVLSIVNRVRQGYSPLSLQTLLPTPRGPDRPEGIEGEGGERDRDTSIRLVDGFLALFWDDLRNLCLFSYRHLRDLLLIAARIVELLGLRGWEILKYLWNLLLYWSQELKNSAISLLDATAIAVAEGTDRIIEAVRRFCRGVLHIPRRIRQGFERALQ"}, "B2": {"name": "HIV-1 Env, rebound clone, placebo arm (protein)", "chain": "MKVRGTKMNWQHLWWRWGTMLLGMLMICKATEEKWVTVYYGVPVWKEATTTLFCASDAKAYEKEAHNVWATHACVPTDPSPQEVVLENVTENFNMWKNNMVEQMHEDIISLWDQSLKPCVKLTPLCVTLNCTDYTNSNSTNHTNSNSSSPTPTAGGEIKNCSFNITTNIRDKIKKEHALFYSLDVVQIDINDNTSYRLISCNTSVITQACPKTTFEPIPIYYCAPAGFAILKCNNKTFDGKGPCKNVSTVQCTHGIRPVVSTQLLLNGSLAEKEIVIRSDNFSDNTKNIIVQLKDPVVINCTRPNNNTRKGIHIGPGRAFYATGKVIGDIRQAYCNISKEEWNKTLGQIVKKLGAQFGNKTTMIFNQSSGGDPEIVTHSFNCGGEFFYCNTSALFNSTWSSNDGNGTWNKTNSTETNSTEIILQCRIKQIVNMWQEVGKAMYAPPIKGPIRCSSNITGLILTRDGGNNTGNNSETFRPAGGNMRDNWRSELYKYKIVKIEPLGIAPTKAKRRTVQREKRAVTMGAMFLGFLGVAGSTMGAASLTLTVQARQLLSGIVQQQNNLLRAIEAQQHLLQLTVWGIKQLQARVLAVERYLADQRFLGIWGCSGKLICTTTVPWNNSWSNKSLDSIWNNMTWMQWEKEIENYTGEIYNLIEQAQNQQEQNERELLELDKWASLWNWFDISNWLWYIKIFIMIVGGLIGLRIVFAVLSIVNRVRQGYSPLSLQTLLPTPRGPDRPEGIEGEGGERDRDTSIRLVDGFLALFWDDLRNLCLFSYRHLRDLLLIAARIVELLGLRGWEILKYLWNLLLYWSQELKNSAISLLDATAIAVAEGTDRIIEAVRRFCRGVLHIPRRIRQGFERALQ"}, "B3": {"name": "HIV-1 Env, rebound clone, placebo arm (protein)", "chain": "MKVRGTKMNWQHLWWRWGTMLLGMLMICKATEEKWVTVYYGVPVWKEATTTLFCASDAKAYEKEAHNVWATHACVPTDPSPQEVVLENVTENFNMWKNNMVEQMHEDIISLWDQSLKPCVKLTPLCVTLNCTDYTNSNSTNHTNSNSSSPTPTAGGEIKNCSFNITTNIRDKIKKEHALFYSLDVVQIDINDNTSYRLISCNTSVITQACPKTTFEPIPIYYCAPAGFAILKCNNKTFDGKGPCKNVSTVQCTHGIRPVVSTQLLLNGSLAEKEIVIRSDNFSDNTKNIIVQLKDPVVINCTRPNNNTRKGIHIGPGRAFYATGKVIGDIRQAYCNISKEEWNKTLGQIVKKLGAQFGNKTTMIFNQSSGGDPEIVTHSFNCGGEFFYCNTSALFNSTWSSNDGNGTWNKTNSTETNSTEIILQCRIKQIVNMWQEVGKAMYAPPIKGPIRCSSNITGLILTRDGGNNTGNNSETFRPAGGNMRDNWRSELYKYKIVKIEPLGIAPTKAKRRTVQREKRAVTMGAMFLGFLGTAGSTMGAASLTLTVQARQLLSGIVQQQNNLLRAIEAQQHLLQLTVWGIKQLQARVLAVERYLADQRFLGIWGCSGKLICTTTVPWNNSWSNKSLDSIWNNMTWMQWEKEIENYTGEIYNLIEQAQNQQEQNERELLELDKWASLWNWFDISNWLWYIKIFIMIVGGLIGLRIVFAVLSIVNRVRQGYSPLSLQTLLPTPRGPDRPEGIEGEGGERDRDTSIRLVDGFLALFWDDLRNLCLFSYRHLRDLLLIAARIVELLGLRGWEILKYLWNLLLYWSQELKNSAISLLDATAIAVAEGTDRIIEAVRRFCRGVLHIPRRIRQGFERALQ"}, "B4": {"name": "HIV-1 Env, rebound clone, placebo arm (protein)", "chain": "MKVRGTKMNWQHLWWRWGTMLLGMLMICKATEEKWVTVYYGVPVWKEATTTLFCASDAKAYEKEAHNVWATHACVPTDPSPQEVVLENVTENFNMWKNNMVEQMHEDIISLWDQSLKPCVKLTPLCVTLNCTDYTNSNSTNHTNSNSSSPTPTAGGEIKNCSFNITTNIRDKIKKEHALFYSLDVVQIDINDNTSYRLISCNTSVITQACPKTTFEPIPIYYCAPAGFAILKCNNKTFDGKGPCKNVSTVQCTHGIRPVVSTQLLLNGSLAEKEIVIRSDNFSDNTKNIIVQLKDPVVINCTRPNNNTRKGIHIGPGRAFYATGKVIGDIRQAYCNISKEEWNKTLGQIVKKLGAQFGNKTTMIFNQSSGGDPEIVTHSFNCGGEFFYCNTSALFNSTWSSNDGNGTWNKINSTETNSTEIILQCRIKQIVNMWQEVGKAMYAPPIKGPIRCSSNITGLILTRDGGNNTGNNSETFRPAGGNMRDNWRSELYKYKIVKIEPLGIAPTKAKRRTVQREKRAVTMGAMFLGFLGAAGSTMGAASLTLTVQARQLLSGIVQQQNNLLRAIEAQQHLLQLTVWGIKQLQARVLAVERYLADQRFLGIWGCSGKLICTTTVPWNNSWSNKSLDSIWNNMTWMQWEKEIENYTGEIYNLIEQAQNQQEQNERELLELDKWASLWNWFDISNWLWYIKIFIMIVGGLIGLRIVFAVLSIVNRVRQGYSPLSLQTLLPTPRGPDRPEGIEGEGGERDRDTSIRLVDGFLALFWDDLRNLCLFSYRHLRDLLLIAARIVELLGLRGWEILKYLWNLLLYWSQELKNSAISLLDATAIAVAEGTDRIIEAVRRFCRGVLHIPRRIRQGFERALQ"}, "B5": {"name": "HIV-1 Env, rebound clone, placebo arm (protein)", "chain": "MKVRGTKMNWQHLWWRWGTMLLGMLMICKATEEKWVTVYYGVPVWKEATTTLFCASDAKAYEKEAHNVWATHACVPTDPSPQEVVLENVTENFNMWKNNMVEQMHEDIISLWDQSLKPCVKLTPLCVTLNCTDYTNSNSTNHTNSNSSSPTPTAGGEIKNCSFNITTNIRDKIKKEHALFYSLDVVQIDINDNTSYRLISCNTSVITQACPKTTFEPIPIYYCAPAGFAILKCNNKTFDGKGPCKNVSTVQCTHGIRPVVSTQLLLNGSLAEKEIVIRSDNFSDNTKNIIVQLKDPVVINCTRPNNNTRKGIHIGPGRAFYATGKVIGDIRQAYCNISKEEWNKTLGQIVKKLGAQFGNKTTMIFNQSSGGDPEIVTHSFNCGGEFFYCNTSALFNSTWSRNDGNGTWNKTNSTETNSTEIILQCRIKQIVNMWQEVGKAMYAPPIKGPIRCSSNITGLILTRDGGNNTGNNSETFRPAGGNMRDNWRSELYKYKIVKIEPLGIAPTKAKRRTVQREKRAVTMGAMFLGFLGAAGSTMGAASLTLTVQARQLLSGIVQQQNNLLRAIEAQQHLLQLTVWGIKQLQARVLAVERYLADQRFLGIWGCSGKLICTTTVPWNNSWSNKSLDSIWNNMTWMQWEKEIENYTGEIYNLIEQAQNQQEQNERELLELDKWASLWNWFDISNWLWYIKIFIMIVGGLIGLRIVFAVLSIVNRVRQGYSPLSLQTLLPTPRGPDRPEGIEGEGGERDRDTSIRLVDGFLALFWDDLRNLCLFSYRHLRDLLLIAARIVELLGLRGWEILKYLWNLLLYWSQELKNSAISLLDATAIAVAEGTDRIIEAVRRFCRGVLHIPRRIRQGFERALQ"}, "B6": {"name": "HIV-1 Env, rebound clone, placebo arm (protein)", "chain": "MKVRGTKMNWQHLWWRWGTMLLGMLMICKATEEKWVTVYYGVPVWKEATTTLFCASDAKAYEKEAHNVWATHACVPTDPSPQEVVLENVTENFNMWKNNMVEQMHEDIISLWDQSLKPCVKLTPLCVTLNCTDYTNSNSTNHTNSNSSSPTPTAGGEIKNCSFNITTNIRDKIKKEHALFYSLDVVQIDINDNTSYRLISCNTSVITQACPKTTFEPIPIYYCAPAGFAILKCNNKTFDGKGPCKNVSTVQCTHGIRPVVSTQLLLNGSLAEKEIVIRSDNFSDNTKNIIVQLKDPVVINCTRPNNNTRKGIHIGPGRAFYATGKVIGDIRQAYCNISKEEWNKTLGQIVKKLGAQFGNKTTMIFNQSSGGDPEIVTHSFNCGGEFFYCNTSALFNSTWSSNDGNGTWNKTNSTETNSTEIILQCRIKQIVNMWQEIGKAMYAPPIKGPIRCSSNITGLILTRDGGNNTGNNSETFRPAGGNMRDNWRSELYKYKIVKIEPLGIAPTKAKRRTVQREKRAVTMGAMFLGFLGAAGSTMGAASLTLTVQARQLLSGIVQQQNNLLRAIEAQQHLLQLTVWGIKQLQARVLAVERYLADQRFLGIWGCSGKLICTTTVPWNNSWSNKSLDSIWNNMTWMQWEKEIENYTGEIYNLIEQAQNQQEQNERELLELDKWASLWNWFDISNWLWYIKIFIMIVGGLIGLRIVFAVLSIVNRVRQGYSPLSLQTLLPTPRGPDRPEGIEGEGGERDRDTSIRLVDGFLALFWDDLRNLCLFSYRHLRDLLLIAARIVELLGLRGWEILKYLWNLLLYWSQELKNSAISLLDATAIAVAEGTDRIIEAVRRFCRGVLHIPRRIRQGFERALQ"}}, "note": "The list shows a part of the results. Env chains of viruses from a treatment-interruption trial, translated from the printed DNA. IC50 / IC80 of two broadly neutralizing antibodies; lower = more sensitive virus; >50 µg/ml means not reached and <0.001 µg/ml is below the lowest dose. No active / inactive call.", "data": [{"target": "antibody 10-1074", "assay": "neutralization IC50; higher = virus less sensitive to the antibody", "protocol": "(§1)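 Pseudovirus bearing the Env chain mixed with antibody, from 50 µg/ml in fivefold dilutions, on TZM-bl reporter cells, in duplicate.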", "units": {"neutralization IC50": "µg/mL"}, "values": [{"binder": "B1", "neutralization IC50": 0.005}, {"binder": "B2", "neutralization IC50": 0.016}, {"binder": "B3", "neutralization IC50": 0.006}, {"binder": "B4", "neutralization IC50": 0.003}, {"binder": "B5", "neutralization IC50": 0.006}, {"binder": "B6", "neutralization IC50": 0.008}]}, {"target": "antibody 3BNC117", "assay": "neutralization IC50; higher = virus less sensitive to the antibody", "protocol": "as §1", "units": {"neutralization IC50": "µg/mL"}, "values": [{"binder": "B1", "neutralization IC50": 0.106}, {"binder": "B2", "neutralization IC50": 0.106}, {"binder": "B3", "neutralization IC50": 0.102}, {"binder": "B4", "neutralization IC50": 0.179}, {"binder": "B5", "neutralization IC50": 0.168}, {"binder": "B6", "neutralization IC50": 0.099}]}, {"target": "antibody 10-1074", "assay": "neutralization IC80; higher = virus less sensitive to the antibody", "protocol": "as §1", "units": {"neutralization IC80": "µg/mL"}, "values": [{"binder": "B1", "neutralization IC80": 0.023}, {"binder": "B2", "neutralization IC80": 0.079}, {"binder": "B3", "neutralization IC80": 0.032}, {"binder": "B4", "neutralization IC80": 0.023}, {"binder": "B5", "neutralization IC80": 0.034}, {"binder": "B6", "neutralization IC80": 0.025}]}, {"target": "antibody 3BNC117", "assay": "neutralization IC80; higher = virus less sensitive to the antibody", "protocol": "as §1", "units": {"neutralization IC80": "µg/mL"}, "values": [{"binder": "B1", "neutralization IC80": 0.461}, {"binder": "B2", "neutralization IC80": 0.546}, {"binder": "B3", "neutralization IC80": 0.892}, {"binder": "B4", "neutralization IC80": 0.676}, {"binder": "B5", "neutralization IC80": 1.27}, {"binder": "B6", "neutralization IC80": 0.907}]}]}
